Compound potency records, mixed from different reports. Data source: NIAID ChemDB in PubChem.

Shared fields: tests in culture; organism: Mycobacterium bovis BCG

Rows are shuffled and stem from different studies. An empty or dashed field is not shown. Two numbers with a dash give a range or band. MIC50, MIC90 and the like: level of inhibition, or share of isolates inhibited.

SMILES	method	setting	strain	read-out	value
CCOC(=O)C#CC(=O)OCC	resazurin	48 h	1173P2	MIC	7.75 µg/mL
CSC(=S)N/N=C(\C)c1ccc(OCc2ccc(F)cc2F)cc1	resazurin / absorbance			MIC	>100 µM
O=C(O)Cc1ccc2c(c1)[nH]c1ccc(Cl)cc12	resazurin / visual reading / absorbance			MIC99	250 µg/mL
CCCCCCn1cc(/C=N/NC(=S)NN)c2ccccc21	broth dilution	48 h	1173P2	MIC100	>500 µg/mL
O=C(O)c1cc(C(F)(F)F)cc2c(=O)nc(N3CCN(CC4CCCCC4)CC3)sc12	resazurin		Pasteur	MIC99	0.0006 µg/mL
CCCCn1cc(CN2CCCCC2)c2cc(F)ccc21	turbidity			MIC50	50 µM
CN(C)c1ccc(O)c2c1C[C@H]1C[C@H]3[C@H](N(C)C)C(=O)C(C(N)=O)=C(O)[C@@]3(O)C(=O)C1=C2O			Pasteur	MIC	1.56 µM
CCOC(=O)C#Cc1ccccc1	resazurin	24 h	1173P2	MIC	7.75 µg/mL
NNC(=S)N/N=C/c1c[nH]c2ccccc12	broth dilution	48 h	1173P2	MIC100	250 µg/mL
Cc1c2cc[n+](CCN3CCCCC3)cc2c(C)c2c1[nH]c1ccc(O)cc12			Pasteur	MIC	6.25 µM
CC(C(=O)O)c1ccc2c(c1)[nH]c1ccc(Cl)cc12	resazurin / visual reading / absorbance			MIC99	125 µg/mL
Cn1cc(/C=N/NC(=S)NN)c2ccccc21	broth dilution	24 h	1173P2	MIC100	>500 µg/mL
CC1OC(CC(=O)O)CC2=C1C(=O)c1c(O)cccc1C2=O			Pasteur	MIC	>100 µM
C#CCCC	resazurin	24 h	1173P2	MIC	3.87 µg/mL
C[C@H]1COC2(CCN(c3nc(=O)c4cc(C(F)(F)F)cc(C(=O)O)c4s3)CC2)O1	resazurin		BN2	MIC99	>100 µg/mL
Cc1nc(NCCc2ccc(OC(F)(F)F)cc2)c2ccc(F)cc2n1	luminescence			MIC50	3.27 µM
Cc1ccc2[nH]c3ccc(CC(=O)O)cc3c2c1	resazurin / visual reading / absorbance			MIC99	250 µg/mL
NNC(=S)N/N=C/c1cn(Cc2ccc(Br)cc2)c2ccccc12	broth dilution	48 h	1173P2	MIC100	>500 µg/mL
CC[C@@H](C(=O)[C@@H](C)[C@@H](O)[C@H](C)[C@@H]1O[C@@H]([C@@H](CC)C(=O)O)CC[C@@H]1C)[C@H]1O[C@@]2(C=C[C@@H](O)[C@@]3(CC[C@@](C)([C@H]4CC[C@](O)(CC)[C@H](C)O4)O3)O2)[C@H](C)C[C@@H]1C	resazurin		1173P2	MIC	6.25 µg/mL
CC(=O)Nc1ccc(/C=N/NC(N)=S)cc1	resazurin		Pasteur	MIC	10 µg/mL
S=C(S)N1CCCC1			Pasteur	MIC	1.56 µM
C=CC1CN2CCC1CC2C[C@H](O)c1ccnc2ccc(OC)cc12	agar			MIC95	>200 µg/mL
Cn1cc(/C=N/Nc2nncs2)c2ccccc21	broth dilution	48 h	1173P2	MIC100	62.5 µg/mL
Ic1ccc2c(c1)N(c1ccccc1)c1cc(Nc3ccc4nc5ccc(I)cc5[n+](-c5ccccc5)c4c3)ccc1N2			Pasteur	MIC	25 µM
O=S(=O)(c1ccccc1)n1cc(/C=N/Nc2nncs2)c2ccccc21	broth dilution	24 h	1173P2	MIC100	250 µg/mL
O=C(O)Cc1ccc2[nH]c3ccc(C(F)(F)F)cc3c2c1	resazurin / visual reading / absorbance			MIC99	125 µg/mL
CNc1ccc2oc(C[C@@H]3OC4(CC[C@@H]3C)O[C@H](C(C)C(=O)c3ccc[nH]3)[C@H](C)C[C@H]4C)nc2c1C(=O)O	resazurin		1173P2	MIC	1.25 µg/mL
COc1ccccc1-c1ccc2[nH]c3cc(C(C)C(=O)O)ccc3c2c1	resazurin / visual reading / absorbance			MIC99	125 µg/mL
CC(C)CCOc1ccc(NC(=S)Nc2ccc(OCCC(C)C)cc2)cc1	resazurin		Pasteur	MIC	5–10 µg/mL
NNC(=S)N/N=C/c1cn(S(=O)(=O)c2ccccc2)c2ccccc12	broth dilution	24 h	1173P2	MIC100	>500 µg/mL

Repeating the final 2 entries:

CC(C)CCOc1ccc(NC(=S)Nc2ccc(OCCC(C)C)cc2)cc1 ; method: resazurin ; strain: Pasteur ; read-out: MIC ; value: 5–10 µg/mL
NNC(=S)N/N=C/c1cn(S(=O)(=O)c2ccccc2)c2ccccc12 ; method: broth dilution ; setting: 24 h ; strain: 1173P2 ; read-out: MIC100 ; value: >500 µg/mL